Marks after values point to notes of the source that are not given here.
Tests used:
[1] = tested on: murine cells; conditions: 100 µM; cited from earlier work
[2] = tested on: Rhipicephalus microplus fully engorged females; experiment: Adults immersion test; conditions: for Eclosion Rate / Eggs Total Weight: immersion; for Total Oviposition: immersion five minutes, ticks that completed oviposition/total
[3] = Solubility in the conditions of the immersion test; conditions: aqueous solutions
[4] = target: Rabbit TIM (RbTIM) (Oryctolagus cuniculus, UniProt P00939); experiment: Rabbit TIM inhibition (selectivity); type: biochemical
[5] = tested on: mammalian TIMs (rabbit and human); experiment: Mammalian TIM inhibition (rabbit and human, summarised); type: biochemical; conditions: 100 µM
[6] = tested on: Rhipicephalus microplus partially engorged female ticks; experiment: Injection of inhibitor into partially engorged females during artificial capillary feeding
[7] = tested on: human cells; conditions: cited from earlier work

Amino acid sequences for entries named in this document (tags omitted). Residues count along the entry.
UniProt P00939, 2-249 limits assumed: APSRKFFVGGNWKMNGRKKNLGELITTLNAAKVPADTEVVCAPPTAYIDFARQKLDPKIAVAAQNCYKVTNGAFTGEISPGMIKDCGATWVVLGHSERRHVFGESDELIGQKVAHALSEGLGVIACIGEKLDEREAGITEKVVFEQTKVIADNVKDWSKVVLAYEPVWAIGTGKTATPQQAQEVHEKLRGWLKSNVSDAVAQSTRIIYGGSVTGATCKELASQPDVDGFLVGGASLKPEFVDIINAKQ

In the case of `O=[N+]([O-])c1cccc2no[n+]([O-])c12`, the “toxic effects on murine cells” value [1] is listed as “no toxic effects”, the “Eclosion Rate” value ([2]; 500 ppm) is listed as 51% * and the “Eggs Total Weight” value ([2]; 500 ppm) is listed as 113 ± 47 mg. The “Total Oviposition” value ([2]; 500 ppm) was 15/15, the “Eclosion Rate” value ([2]; 2000 ppm) was 51% * and the “Eggs Total Weight” value ([2]; 2000 ppm) was 123 ± 35 mg. For the same compound, the “Total Oviposition” value ([2]; 2000 ppm) was 13/15, the “solubility in immersion test conditions” value [3] was “low soluble” and the “% Inhibition at 100 µM RbTIM” value [4] was 0%. The “Mammalian Triosephosphate isomerase inhibition” value [5] was “did not affect”, the survival [6] was 0% and the “toxicity for human cells” value [7] was “low toxicity”.
